A mixed list of measured activities; the numbers were collected in NIAID ChemDB.

All rows: tests in culture; organism: Candida albicans; endpoint: EC50

An empty or dashed field is not shown. a–b is a range or a potency band. ECn is the concentration giving n% inhibition of infection, replication or growth. Neighbouring rows are from separate reports.

structure	strain or isolate	method	result
S=c1[nH]nc(Sc2ccc3c(Cl)ccnc3c2)s1	ATCC 90028	resazurin	>50 µg/mL
C=C1CC[C@H](N)[C@H](C(=O)O)C1			>256 µg/mL
CC(=O)N[C@H]1[C@@H](O[C@@H]2O[C@H](C[C@@H](O)[C@H]3O[C@@H](n4ccc(=O)[nH]c4=O)[C@H](O)[C@@H]3O)[C@H](O)[C@H](O)[C@H]2NC(=O)/C=C/CC(C)C)O[C@H](CO)[C@@H](O)[C@@H]1O	MY1055		>20 µg/mL
CCCCCSc1nc2ccc(N)cc2s1	IEM 49/64		<80 µM
C=C1C[C@@H](C(=O)O)[C@H]1N			>256 µg/mL
CC/C=C/C(CC)CCC[C@@]1(CC)C[C@H](CC)[C@H](CC(=O)O)OO1			5 µg/mL
C=C1C(=O)O[C@@H]2O[C@]3(C)CC[C@H]4[C@H](C)CC[C@@H]1C24OO3	ATCC 90028		>50 µg/mL
C1CCC([C@H]2CN3C(=NC[C@@H]3C3CCCCC3)N2CCC23CC4CC(CC(C4)C2)C3)CC1	ATCC 10231		18.6 µg/mL
Cc1cc(O)cc2oc3cc(O)cc(O)c3c(=O)c12	SC5314	resazurin	>250 µM
C[C@H]1[C@@H](OCCCCO)O[C@@H]2O[C@]3(C)CC[C@H]4[C@H](C)CC[C@@H]1C24OO3	ATCC 90028		>50 µg/mL
C[C@@H]1CC[C@@]2(OC1)O[C@H]1[C@@H](O)[C@H]3[C@@H]4CC[C@H]5C[C@@H](O[C@@H]6O[C@H](CO)[C@H](O[C@@H]7O[C@H](CO)[C@@H](O)[C@H](O[C@@H]8OC[C@@H](O)[C@H](O)[C@H]8O)[C@H]7O[C@@H]7O[C@H](CO)[C@H](O)[C@H](O[C@@H]8O[C@H](CO)[C@@H](O)[C@H](O)[C@H]8O)[C@H]7O)[C@H](O)[C@H]6O)[C@H](O)C[C@]5(C)[C@H]4CC[C@]3(C)[C@H]1[C@@H]2C	MY1055		10 µg/mL
Cc1nc2cc(Sc3n[nH]c(=S)s3)ccc2s1	ATCC 90028	resazurin	>50 µg/mL
CC(C)(C)C1CCC(CN2C3=NC[C@H](C4CCCCC4)N3C[C@H]2C2CCCCC2)CC1	ATCC 10231		29.3 µg/mL
CCC(C)n1ncn(-c2ccc(N3CCN(c4ccc(OC[C@H]5CO[C@](Cn6cncn6)(c6ccc(Cl)cc6Cl)O5)cc4)CC3)cc2)c1=O	75 strains	agar diffusion / agar	<10 µg/mL
C=C1[C@@H](OCCO)O[C@@H]2O[C@]3(C)CC[C@H]4[C@H](C)CC[C@@H]1C24OO3	ATCC 90028		>50 µg/mL
C[C@H]1[C@H](O)[C@@H](C)/C=C/C=C/C=C/C=C/C=C/C=C/C=C/[C@H](O[C@@H]2O[C@H](C)[C@@H](O)[C@H](N)[C@@H]2O)C[C@@H]2O[C@](O)(C[C@@H](O)C[C@@H](O)CC[C@H](O)[C@@H](O)C[C@@H](O)CC(=O)O[C@H]1C)C[C@H](O)[C@H]2C(=O)O	ATCC 18804	broth dilution	1 µg/mL
Cc1ccc(S(=O)(=O)[O-])cc1.c1cc[nH+]cc1	CCH442		>200 µM
C1CCC(C[C@H]2CN=C3N2C[C@H](C2CCCCC2)N3CCC23CC4CC(CC(C4)C2)C3)CC1	ATCC 10231		9.3 µg/mL
CC(C)OC(=O)c1ccc(C2=CN3CCC2CC3)cc1	ATCC 10231	broth dilution	>16 µg/mL
O=C(O)/C=C/c1ccccc1	PYCC 3436	broth dilution / turbidity	0.45 µM
OC(Cn1cncn1)(Cn1cncn1)c1ccc(F)cc1F	75 strains	agar diffusion / agar	<15 µg/mL
COc1cc(O)c2c(c1)-c1cc(O)c(O)cc1COC2=O	SC5314	resazurin	>250 µM
O=C(O)c1ccccc1O	ATCC 90028	broth dilution / turbidity	0.26 µM
CN(C)CC/C=C1/c2ccccc2Sc2ccc(Cl)cc21		broth dilution	64 µg/mL
CC(C)=CCC/C(C)=C/CCC(C)=CCCC[n+]1ccccc1.Cc1ccc(S(=O)(=O)[O-])cc1	CCH442		0.36 µM
CCCCC(NC(=O)C(N)CC(C)C)C(=O)NC(C(=O)O)[C@H]1O[C@@H](n2ccc(=O)[nH]c2=O)[C@H](O)[C@@H]1O	H317		500 µM
C[C@@H]1C=CC(CC(=O)OCC2[C@H]3C[C@@H]4C[C@H](C3)C(Br)[C@H]2C4)OO1			250–500 µM
CC(C)(C)[Si](C)(C)Oc1ccc(C2=CN3CCC2CC3)cc1	ATCC 10231	broth dilution	>16 µg/mL
c1ccc([Te][Te]c2ccccc2)cc1			2–10 µM
CCCCCCCCCCCCCCCC[n+]1ccccc1	CCH442		3.7 µM
N[C@H]1COC[C@H]1C(=O)O			64 µg/mL
C1C2CC3CC1CC(C2)C3C[C@H]1OOC[C@@H]2O[C@@H]21			125–250 µM
CCC(C)CC(C)CCCCCCCCC(=O)N[C@H]1C[C@@H](O)[C@@H](OCCN)NC(=O)[C@@H]2C[C@@H](O)CN2C(=O)[C@H]([C@H](O)CCN)NC(=O)[C@H]([C@H](O)[C@@H](O)c2ccc(O)cc2)NC(=O)[C@@H]2C[C@@H](O)CN2C(=O)[C@H]([C@@H](C)O)NC1=O	MY1055		>20 µg/mL
CC(=O)OC1C=COC=C2CC34SSC5(CC6=COC=CC(OC(C)=O)C6N5C3=O)C(=O)N4C21	E83		10 µg/mL
OC1(c2ccc(-c3ccccc3)cc2)CN2CCC1CC2	ATCC 10231	broth dilution	>16 µg/mL
[CH3][Sn]1([CH3])[O]C(=O)c2ccccc2NCc2ccccc2[O]1	ATCC 18804	broth dilution	20 µg/mL
O=C1Nc2ccccc2C(=O)C1CSc1n[nH]c(=S)s1	ATCC 90028	resazurin	>50 µg/mL
O=C(O)CN1C(=O)/C(=C/c2ccc(OCc3ccccc3)c(OCc3ccccc3)c2)SC1=S	G418-sensitive		4 µM
C1CCC([C@@H]2CN3C(=NC[C@H]3C3CCCCC3)N2CCC23CC4CC(CC(C4)C2)C3)CC1	ATCC 10231		23.1 µg/mL
c1ccc2c(c1)-c1nccc3ccnc-2c13	B311		5.25 µg/mL
C[C@H]1OO[C@@H](CC(=O)OC2C3CC4CC(C3)CC2C4)[C@@H]2O[C@@H]21			250–500 µM
C1=C(c2ccc3ccccc3c2)C2CCN1CC2	ATCC 10231	broth dilution	>16 µg/mL
CC(N1CCN(c2ccc(-n3cnnn3)cc2)C1=O)[C@](O)(Cn1cncn1)c1ccc(F)cc1F	Clinical isolates		<2 µg/mL
CCN1C2=NC[C@H](Cc3ccccc3)N2C[C@H]1CCCN=C(N)N	ATCC 10231		>250 µg/mL
C1C2CC3CC1CC(C2)C3[C@H]1OO[C@@H](C2C3CC4CC(C3)CC2C4)[C@@H]2O[C@@H]21			>1000 µM
C=C=C1C[C@H](N)[C@H](C(=O)O)C1			128 µg/mL
Clc1ccc(C(Cn2ccnc2)OCc2ccsc2Cl)c(Cl)c1	75 strains	agar diffusion / agar	<10 µg/mL
C[C@@H]1[C@H](O)[C@@H](C)/C=C/C=C/C=C/C=C/C=C/C=C/C=C/[C@H](O[C@@H]2O[C@H](C)[C@@H](O)[C@H](N)[C@@H]2O)C[C@@H]2O[C@](O)(C[C@@H](O)C[C@@H](O)[C@H](O)CC[C@@H](O)C[C@@H](O)CC(=O)O[C@H]1C)C[C@H](O)[C@H]2C(=O)O	SC5314	broth dilution	0.28 µg/mL
Oc1cc(Cc2cc(O)c(O)c(Br)c2Br)c(Br)c(Br)c1O	ATCC 10231		25 µg/mL
O=C(O)c1ccccc1	PYCC 3436		0.1 µM
CC(C)=CCC/C(C)=C/CC/C(C)=C/CCCOS(=O)(=O)c1ccc(C)cc1	CCH442		>20 µM
COc1ccc2cc(C3=CN4CCC3CC4)ccc2c1	ATCC 10231	broth dilution	>16 µg/mL
NC(=O)OC[C@H](O)[C@@H](O)[C@H](N)C(=O)N[C@H](C(=O)O)[C@H]1O[C@@H](n2cc(C(=O)O)c(=O)[nH]c2=O)[C@H](O)[C@@H]1O	H317		1000 µM
C[C@H]1OO[C@@H](CC(=O)OC2C3CC4CC(C3)CC2C4)[C@H]2O[C@H]21			125–250 µM
O=c1ccc2cc3ccoc3cc2o1	105	broth dilution	<400 µg/mL
CO[C@@H]1O[C@@H]2O[C@]3(C)CC[C@H]4[C@H](C)CC[C@@H]([C@H]1C)C24OO3	ATCC 90028		>50 µg/mL
COc1cc(C)c2c(=O)c3c(O)cc(O)cc3oc2c1	SC5314	resazurin	>250 µM
CC(C)CCCC(C)CCCC(C)CCCC[n+]1ccc(N(C)C)cc1.O=C([O-])C(F)(F)F	CCH442		0.66 µM
CC(=O)O[C@@H]1C[C@@]23C(=O)OC[C@](C)([C@@H]2CC[C@H]2C3=CC[C@@]3(C)[C@H](C(=O)O)[C@@](C)([C@H](C)C(C)C)CC[C@]23C)[C@H]1O[C@@H]1O[C@H](CO)[C@@H](O)[C@H](O)[C@H]1O	MY1055		10 µg/mL
COc1cc(O)c2c(c1)C1=C[C@H](O)[C@@H](O)C[C@]1(C)OC2=O	SC5314	resazurin	>250 µM